# Positions that govern dimerization of the HIV-1 5' RNA

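Mutant RNA libraries with 1G, 2G or 3G starts, with or without cap, were folded at 37 °C for 30 min. Monomer and dimer bands were cut from native gels after folding in high salt (300 mM KCl, 5 mM MgCl2) or low salt (40 mM KCl, 0.1 mM MgCl2). Kdimer compares mutation frequencies in monomer and dimer, corrected for sequencing errors.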

The 5' region of HIV-1 NL4-3 RNA (positions 1-437):
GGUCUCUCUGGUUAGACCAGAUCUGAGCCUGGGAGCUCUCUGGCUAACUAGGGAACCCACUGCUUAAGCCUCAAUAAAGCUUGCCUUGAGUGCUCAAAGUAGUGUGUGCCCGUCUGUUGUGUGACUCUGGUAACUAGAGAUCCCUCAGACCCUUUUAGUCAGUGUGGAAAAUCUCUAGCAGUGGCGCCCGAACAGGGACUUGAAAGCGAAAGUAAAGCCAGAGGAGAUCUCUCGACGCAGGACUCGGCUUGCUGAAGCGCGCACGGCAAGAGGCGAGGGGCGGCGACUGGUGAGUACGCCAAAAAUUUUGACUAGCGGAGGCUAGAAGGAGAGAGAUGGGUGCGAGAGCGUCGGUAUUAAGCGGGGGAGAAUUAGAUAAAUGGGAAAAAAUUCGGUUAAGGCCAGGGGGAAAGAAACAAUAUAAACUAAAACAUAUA

Scale: median log2 Kdimer over the changes at a position; positive = changes inhibit dimerization, negative = changes enhance it. One numbering serves 1G, 2G and 3G. A position is written with its base.

position	2G uncapped high-salt	2G uncapped low-salt	3G capped high-salt	3G capped low-salt
C110	0.24	0.72	0.02	1.22
C111	-0.15	0.81	-0.29	1.26
G112	0.00	0.18	0.09	0.62
U113	-0.11	0.30	-0.33	0.59
C114	-0.20	0.29	0.11	0.53
U115	-0.07	0.54	-0.20	0.54
G116	0.22	-0.33	0.27	-0.33
U117	-0.05	-0.16	-0.30	-0.17
U118	0.05	-0.15	0.04	-0.01
G119	0.05	-0.45	-0.01	-0.46
U120	0.12	0.09	0.07	0.76
G121	0.05	-0.46	-0.40	-0.72
U122	0.17	0.76	-0.31	0.88
G123	0.00	0.18	-0.30	-0.14
A124	0.11	0.26	0.10	0.55
C125	0.02	0.47	-0.07	0.54
U126	0.02	0.26	0.29	0.86
C127	0.00	0.54	-0.25	0.84
U128	0.31	0.64	0.27	0.85
G129	0.37	0.83	0.06	1.10
G130	0.34	0.41	0.42	0.70
U131	0.34	0.36	0.13	0.79
A132	0.04	-0.01	0.08	-0.07
A133	0.11	0.26	-0.05	0.09
C134	-0.03	-0.16	-0.22	-0.22
U135	0.24	-0.04	-0.15	-0.02
A136	0.23	-0.13	-0.09	-0.16
G137	0.33	0.76	-0.05	0.33
A138	0.27	0.57	0.05	0.27
G139	0.30	0.64	-0.19	0.39
A140	0.20	0.31	-0.22	0.25
U141	0.23	0.59	-0.24	0.36
C142	0.09	0.14	0.07	0.12
C143	0.19	0.37	0.04	0.28
C144	0.03	0.09	0.14	0.20
U145	0.10	0.23	0.09	0.18
C146	0.16	0.10	-0.10	0.02
A147	0.06	-0.11	0.05	-0.17
G148	0.34	0.27	-0.09	0.42
A149	0.75	-0.07	0.88	-0.16
C150	0.32	0.52	-0.06	0.52
C151	-0.06	-0.06	-0.01	-0.09
C152	0.06	0.03	0.06	-0.38
U153	-0.07	0.00	0.00	0.14
U154	0.16	0.10	0.09	0.02
U155	0.09	-0.06	-0.06	-0.03
U156	0.04	-0.11	-0.09	-0.26
A157	0.04	-0.01	0.09	-0.03
G158	0.00	-0.49	-0.44	-0.39
U159	-0.07	0.14	-0.14	-0.14

6 of these entries, quoted again:

| position | 2G uncapped high-salt | 2G uncapped low-salt | 3G capped high-salt | 3G capped low-salt |
|---|---|---|---|---|
| U115 | -0.07 | 0.54 | -0.20 | 0.54 |
| C134 | -0.03 | -0.16 | -0.22 | -0.22 |
| C152 | 0.06 | 0.03 | 0.06 | -0.38 |
| A147 | 0.06 | -0.11 | 0.05 | -0.17 |
| C144 | 0.03 | 0.09 | 0.14 | 0.20 |
| C125 | 0.02 | 0.47 | -0.07 | 0.54 |

Reference: Ye et al. 2022, doi:10.1038/s41594-022-00746-2.